# Assay results as given in patent US10590365B2, “Compounds for a controlled release of active molecules” (FIRMENICH SA, priority 2013, dated 2020).
# Tested on: Propionibacterium acnes ATCC 6919
# Assay: Incubation of pro-perfume glucuronide mixture with skin bacteria; remaining conjugate by LC-MS
# Format: cell-based
# Settings: After 1 day, 37° C.; result in words
# Procedure: The liberation of perfuming alcohols from the present invention's compounds of formula (I) was tested in vitro during incubation with defined skin bacteria strains.
# c) Bacterial solutions: Two underarm bacterial isolates, Propionibacterium acnes ATCC 6919 and Staphylococcus warneri DSM 20316 (identified by 16S rDNA sequencing by Deutsche Sammlung von Mikroorganismen and ZellKulturen DSMZ, Germany), were cultivated on SCH agar at 37° C. during 72 h in anaerobic conditions and on TSA at 37° C. during 24 h, respectively.
# One isolated colony of P. acnes from the pure primary culture on SCH agar was inoculated on a new SCH agar and incubated at 37° C., 72 h in anaerobic conditions. After incubation, the whole culture was dissociated by shaking in 20 ml of NaCl 0.9% then centrifuged 10 min at 5000 rpm at room temperature. The pellet was washed in NaCl 0.9% and concentrated two times in NaCl 0.9%. […]
# The vials were placed in a heating block at 37° C. under gentle stirring from 1 to 7 days depending on the bacteria solutions. At the end of the incubation time, vials were cooled down to room temperature, 150 μL was mixed with 50 μL of LC-MS solvent B, filtered through acrodisc and 1 μL was injected on LC-MS (peak areas considered were measured in SIM mode according to their respective molecular weights). […]
smiles,measurement,value
"CC1CCC(C(C)C)C(OC2O[C@H](C(=O)O)[C@@H](O)[C@H](O)[C@H]2O)C1 (stereo partly shown) [p-menthan-3-ol, glucopyranosiduronic acid 1-menthyl]",Glucuronide-conjugates remaining after incubation with Propionibacterium acnes,No transformation
